From patent US20110105577A1 (priority 2007, published 2011) come the findings set out here.

Each structure is given as a SMILES string.

One test relates to Aspergillus parasiticus. The conditions noted are these: versus untreated control; 0% = level of control, 100% = below limit of detection; registered application rate (fludioxonil 125 g a.i./ha); 6 days, 20° C.
In another test the test system is Aspergillus flavus. The conditions noted are these: versus untreated control; 0% = level of control, 100% = below limit of detection; registered dose rate (fludioxonil 125 g a.i./ha); 6 days, 28° C.

`N#Cc1c[nH]cc1-c1cccc2c1OC(F)(F)O2` [Fludioxonil]: in the test with Aspergillus parasiticus, the “Reduction (%) of aflatoxin B1 production by Aspergillus parasiticus” value (“Reduction (%) … by Aspergillus parasiticus” for short) was 78%. In the test on Aspergillus flavus, the “Reduction (%) of aflatoxin B1 production by Aspergillus flavus” value (shortened to “Reduction (%) … by Aspergillus flavus”) amounted to 77%.

`OC(Cc1ccccc1Cl)(Cn1nc[nH]c1=S)C1(Cl)CC1` (centres unmarked) [Prothioconazole]: the “Reduction (%) … by Aspergillus parasiticus” value in the test on Aspergillus parasiticus worked out at 52%. In the test on Aspergillus flavus, the “Reduction (%) … by Aspergillus flavus” value amounted to 84%.

Consider `CC(C)(C)C(O)(CCc1ccc(Cl)cc1)Cn1cncn1` (centres unmarked) [Tebuconazole], for which the “Reduction (%) … by Aspergillus parasiticus” value with Aspergillus parasiticus is on record as 94%. The “Reduction (%) … by Aspergillus flavus” value with Aspergillus flavus turned out to be 53%.

Regarding `CON=C(C(=O)OC)c1ccccc1CON=C(C)c1cccc(C(F)(F)F)c1` [Trifloxystrobin], the “Reduction (%) … by Aspergillus parasiticus” value in the test on Aspergillus parasiticus is recorded as 88%. Moreover, in the test on Aspergillus flavus, the “Reduction (%) … by Aspergillus flavus” value came out at 93%.
